Measurements taken from PMC7765321, “Novel Isoniazid-Carborane Hybrids Active In Vitro against Mycobacterium tuberculosis” (Pharmaceuticals, 2020).

Test system: Mtb H37Rv strain
Type: cell-based
Conditions: Selectivity Index = CC50/MIC99 Mtb

Row | Substance | SI Mtb
1 | N′-((1,2-dicarba-closo-dodecaboran-1-yl)ethyl)isonicotinohydrazide [Compound 23] | 18
2 | N′-((1,2-dicarba-closo-dodecaboran-1-yl)ethylidene)isonicotinohydrazide [Compound 20] | 51
3 | N′-((1,2-dicarba-closo-dodecaboran-1-yl)propanoyl)isonicotinohydrazide [Compound 8] | <1
4 | N′-((1,7-dicarba-closo-dodecaboran-1-yl)ethyl)isonicotinohydrazide [Compound 24] | 32
5 | N′-((1,7-dicarba-closo-dodecaboran-1-yl)ethylidene)isonicotinohydrazide [Compound 21] | 95
6 | N′-((1,7-dicarba-closo-dodecaboran-1-yl)methylidene)isonicotinohydrazide [Compound 14] | 38
7 | N′-((1,7-dicarba-closo-dodecaboran-1-yl)propanoyl)isonicotinohydrazide [Compound 9] | 4
8 | N′-((1,12-dicarba-closo-dodecaboran-1-yl)ethylidene)isonicotinohydrazide [Compound 22] | 50
9 | N′-((1,12-dicarba-closo-dodecaboran-1-yl)methylidene)isonicotinohydrazide [Compound 15] | 18
10 | N′-((1,12-dicarba-closo-dodecaboran-1-yl)propanoyl)isonicotinohydrazide [Compound 10] | 2
11 | N′-((7,8-dicarba-nido-undecaboranyl)methylidene)isonicotinohydrazide [Compound 16] | 756
